The entries are a selection whose mix differs from that of the whole data set.
Assay: NOVARTIS: Inhibition Frequency Index (IFI) - the number of HTS assays where a compound showed > 50% inhibition/induction, expressed as a percentage of the number of assays in which the compound was tested.
Type: functional

| SMILES | IFI |
| --- | --- |
| O=[N+]([O-])c1ccc(NCCN(CCO)c2ccc([N+](=O)[O-])cc2[N+](=O)[O-])c(Cl)c1 | 0% |
| Cc1nc(Nc2cccc([N+](=O)[O-])c2)nc(Nc2cccc([N+](=O)[O-])c2)c1[N+](=O)[O-] | 0% |

From ChEMBL document CHEMBL1156829
